Results taken from publication PMC3145626.

What was measured:
[1] = molecular target: T1, Fur (Escherichia coli K12) (UniProt P0A9A9); assay: EMSA; settings: EMSA: 10 mM Tris-borate pH 7.5, 40 mM KCl, 5% glycerol, 1 mM MgCl2, 100 uM MnCl2, 2 mM DTT, 100 ug/ml BSA, 1 ug/ml salmon sperm DNA, 2 nM probe, recombinant protein, label: 32P (alpha-32P dGTP in PCR), probe letters rebuilt from the primers and the genome
T1 sequence (looked up, limits assumed): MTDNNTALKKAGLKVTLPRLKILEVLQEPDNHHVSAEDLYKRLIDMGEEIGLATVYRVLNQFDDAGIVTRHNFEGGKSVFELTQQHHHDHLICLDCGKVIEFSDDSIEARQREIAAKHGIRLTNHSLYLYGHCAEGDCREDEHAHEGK

[2] = system: RNA polymerase holoenzyme saturated with sigma70 (Esigma70); assay: EMSA; settings: no Fur, 0.5-2 units RNAP; EMSA: 10 mM Tris-borate pH 7.5, 40 mM KCl, 5% glycerol, 1 mM MgCl2, 100 uM MnCl2, 2 mM DTT, 100 ug/ml BSA, 1 ug/ml salmon sperm DNA, 2 nM probe; commercial protein; label: 32P (alpha-32P dGTP in PCR); probe letters rebuilt from the primers and the genome
[3] = molecular target: T1, Fur (Escherichia coli K12); assay: competition with a labelled probe; settings: sci1 probe, competitor 1:2 and 1:10, Fur 20 nM; EMSA: 10 mM Tris-borate pH 7.5, 40 mM KCl, 5% glycerol, 1 mM MgCl2, 100 uM MnCl2, 2 mM DTT, 100 ug/ml BSA, 1 ug/ml salmon sperm DNA, 2 nM probe; recombinant protein

Question: What does the source list for “CTGAAACGAACTGCTCATGGCTCTCTCCTGTGAAACCTGCATCTCAGGGGTTCCATCACCGCAGATGCCTCCCCTTGTGCACTGATTTAATTTTGATCATTATAGGACGAAGATCTGAAAAATCTCAATATAACAGATACATCGATCGATATAATGCAAATAATCAGGACTTTATTCTATGGAATGTCGCAAAATAATGAATATTCAAAGCTTATAACCATTGTTAATGTAAAAATACAGAAAATTATTCCACAAAACACTTTTGATACAGCCAGTTAACATAAACACTGTATTTTCTTGATTTCAGTCATTGAAAATCACAATGAGTAAAGTTTCAGCAGCATTGACGTGATTTCTGGAAAGCGGGAAAGATATGGAGGAAGGGCCCAACAAAATGCAATGAAAGAAGGAGTGAGGGGATTTCTAGTAAAAACAGAAGATTAACAAAACACATCAGGAGGCAGAGACTCCTGATTCAGTGCTACCACATGAAAATTTAGTTAACTGTTACCGTTCTGAAATCTATGTCAGAAGATATTCCATTACCGAAAATCAATCAGCGATACAGAGACGATCATGGTGCG (double strand) [sci1 promoter]”?
Answer: binding result ([1]; FeCl3, two shifts): binds; binding result [2]: binds

Question: Does “GGCAACCAGACGGTATACCTGTGGCTGCTGAACACCTCCGGGATGACGGGTTTTATCGCCTGGCTGGGGATTGCCATTAGCCACTATCGCTTCCGTCGCGGTTACGTATTGCAGGGACACGACATTAACGATCTGCCGTACCGTTCAGGTTTCTTCCCACTGGGGCCGATCTTCGCATTCATTCTGTGTCTGATTATCACTTTGGGCCAGAACTACGAAGCGTTCCTGAAAGATACTATTGACTGGGGCGGCGTAGCGGCAACGTATATTGGTATCCCGCTGTTCCTGATTATTTGGTTCGGCTACAAGCTGATTAAAGGAACTCACTTCGTACGCTACAGCGAAATGAAGTTCCCGCAGAACGATAAGAAATAAGTTTCCTCCCTTCCTTGCTAAGCCCTCTCAACCGAGAGGGCTTTTTCAATTCCATTTCCCTGACAAATCATGCGGATATAAAATTTAACATTTGGATTGATAATTGTTATCGTTTGCATTATCGTTACGCCGCAATCAAAAAAGGCTGACAAATCAGAGGCTGTTCCGGCTTTCTGGGATGATCACCTGCATAAAAAATAAGTCCACCGCGATGCTGCCGTACGC (double strand) [cir promoter]” bind ([1]; metal-dependent, Fur 5 nM)?
Answer: binds

Question: Does “GGCAACCAGACGGTATACCTGTGGCTGCTGAACACCTCCGGGATGACGGGTTTTATCGCCTGGCTGGGGATTGCCATTAGCCACTATCGCTTCCGTCGCGGTTACGTATTGCAGGGACACGACATTAACGATCTGCCGTACCGTTCAGGTTTCTTCCCACTGGGGCCGATCTTCGCATTCATTCTGTGTCTGATTATCACTTTGGGCCAGAACTACGAAGCGTTCCTGAAAGATACTATTGACTGGGGCGGCGTAGCGGCAACGTATATTGGTATCCCGCTGTTCCTGATTATTTGGTTCGGCTACAAGCTGATTAAAGGAACTCACTTCGTACGCTACAGCGAAATGAAGTTCCCGCAGAACGATAAGAAATAAGTTTCCTCCCTTCCTTGCTAAGCCCTCTCAACCGAGAGGGCTTTTTCAATTCCATTTCCCTGACAAATCATGCGGATATAAAATTTAACATTTGGATTGATAATTGTTATCGTTTGCATTATCGTTACGCCGCAATCAAAAAAGGCTGACAAATCAGAGGCTGTTCCGGCTTTCTGGGATGATCACCTGCATAAAAAATAAGTCCACCGCGATGCTGCCGTACGC (double strand) [me-cir promoter]” bind ([1]; methylation had no effect, Fur 20 nM, N6-methyladenine at GATC sites (Dam))?
Answer: binds

Question: Does “TATGCCGGATAATGATAATCATTATCTATGCCG (double strand) [Fur consensus competitor]” bind [3]?
Answer: binds

The exact form of at least one protein or probe is not confirmed. For some assays here: At least one verdict rests on a figure or table, not on a statement of the authors. For some assays here: Where a protein sequence is shown, tags need not be part of it.
